From patent publication US5532231A, “Antibacterial agent” (priority 1994, dated 1996)

Assay: Adherence to polystyrene in the absence of E. coli ESS
Settings: after 22 hours, ethanol extraction

SMILES	amount still bound to the polystyrene [µg]
CCCC1OC(=O)C(C)CC(C)CCCCC(=O)CCCC(CC)CCCC(COC)CCC(O)C(O)CC(O)CNC1=O (centres unmarked) [Focusin]	8
CCCC1OC(=O)C(C)CC(C)CCCCC(=O)CCCC(CC)C=CC=C(COC)CCC(O)C(O)CC(O)CNC1=O (centres unmarked) [TA, reference compound]	1
